Publication PMC7145534, “Are the intrinsically disordered linkers involved in SSB binding to accessory proteins?” (Nucleic Acids Research, 2019)

Test system: χ
Assay: Sedimentation velocity, effect of P15 on χ
Type: binding, Escherichia coli

P15: SSB-Ct peptide, C-terminal 15 amino acids of E. coli SSB, contains acidic tip, no PXXP motifs (PSNEPPMDFDDDIPF)
assembly state of χ (30-fold excess P15): monomeric before and after P15 binding | sedimentation coefficient s20,w of χ with peptide (30-fold excess P15, BTP pH 8.0, 50 mM NaCl, χ alone 1.76 S): 1.80 S
